Test results from the supplement of paper PMC12637763.
Several values for one entry are separate records, joined by “and”; a condition that tells them apart may be missing. Equal entries are not always repeated. The list shows a part of the results. Env chains of viruses from a treatment-interruption trial, translated from the printed DNA. IC50 / IC80 of two broadly neutralizing antibodies; lower = more sensitive virus; >50 µg/ml means not reached and <0.001 µg/ml is below the lowest dose. No active / inactive call.

Assays:
antibody 10-1074 [1] = test: neutralization IC50; higher = virus less sensitive to the antibody
Description: (§1)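 Pseudovirus bearing the Env chain mixed with antibody, from 50 µg/ml in fivefold dilutions, on TZM-bl reporter cells, in duplicate.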

antibody 3BNC117 [2] = test: as above
Description: as §1

antibody 10-1074 [3] = test: neutralization IC80; higher = virus less sensitive to the antibody
Description: as §1

antibody 3BNC117 [4] = test: as above
Description: as §1

B1: HIV-1 Env, rebound clone, placebo arm (protein)
chain: MKVKGTRMNWQHLWRWGTLMLGLVIICNASNTNLWVTVYYGVPAWEDADTTLFCASDAKAYSTEKHNVWATHACVPTDPNPQEISLPNVTENFDMWKNNMVEQMHEDIISLWDESLKPCVKLTPLCVTLTCSDINITNSSNTTTTNGNNSMVDPEEIKNCTFNMTTEIIDKKKEEYALFYKLDIVQINNGNNSKDYRLINCNVSTIKQACPKVSFEPIPIHYCAPAGFAILKCKDKNFNGTGPCKNVSTVQCTHGIKPVVSTQLLLNGSLAEEDIVIRTKNITDNGNNIIVHLNESITINCTRPNNNTRKSIHLGQGQAFYATGAIIGDIRQAHCNVSGSQWINMIKRVAGKLKGVFSKNVTFNSSAGGDLEITTHSFNCGGEFFYCNTSNLFNSSILTSNNTNENITLPCKIRQIVRMWQTVGQAMYAPPIAGSIICTSNITGLILTRDGGSNETNGTDTFRPGGGNMKDNWRSELYKYKVVKIKPLGIAPTKARRRVVGREKRAIGVLGAALLGFLGTAGSTMGAASITLTVQVRQLLSGIVQQQSNLLRAIEAQQHLLQLTVWGIKQLQARVLAVERYLRDQQLLGIWGCSGKLICTTNVPWNASWSNKSYEEIWDNMTWIQWDREIDNYTQLIYSLIEESQNQQEKNEQDLLALDKWTSLWSWFDISNWLWYIRIFIIIVGGLIGLRIVFAVLSIVNRVRQGYSPLSLQTLLPHPPEADRPGEIEEGGGEQGRTRSIRLVNGFLALAWDDLRNLCLFLYHHLRDFILTAARTVETLGHRGWEILKYLGNLLCYWGQELKNSVINLLDTTAIAVGNWTDRFIELGQRVVRAVLHIPRRTRQGLERALL
neutralization IC50 (antibody 10-1074 [1]): 0.012 µg/mL | neutralization IC50 (antibody 3BNC117 [2]): 0.127 µg/mL | neutralization IC80 (antibody 10-1074 [3]): 0.036 µg/mL | neutralization IC80 (antibody 3BNC117 [4]): 0.414 µg/mL

B2: HIV-1 Env, rebound clone, placebo arm (protein)
chain: MRVKGIKRNCQRLWKWGTMLLGMLMICSAADNLWVTVYYGVPVWKDATTTLFCASDAKGYETEVHNVWATHACVPTDPSPNEVVLENVTENFNMWKNDMVEQMHEDIISLWDQSLKPCVKLTPLCVTLKCTNATSCTSANATKNVRCDATDSSGNTTTNGTQGVTQGVRTETDEIKNCTFNITTSTRENVEGRALFSDLDLVYDSSTQSYRLIRCNTSVITQACPKVSFEPIPIHYCAPAGFAILKCRDKGFNGTGPCKNVSTVQCTHGIRPVVSTHLLLNGSLAEGKVVIRSENFTDNAKTIIVQLKEAVNMTCIRPNNNTRKRMSLGPGKVWYSTGDIIGDIRKAQCNLSSQAWNKTLHQVVAKLREQFENKTIIFKPPPGGDPEILMHNFNCGGEFFYCNSTPLFNTTWLNSTWNSTMDRNSSDTSEITLQCRIKQIINMWQGVGRAMYAPPIKGQIKCSSNITGLLLTRDGGNNITSTNETFRPGGGNMKDNWRSELYKYKVIKIEPLGVAPTKARRRVVQREKRAVGVIGAMFLGFLGAAGSTMGAASLTLTVQARQLLSGIVQQQNNLLKAIEAQQQLLRLTVWGIKQLQARVLAVERYLRDQQLLGIWGCSGKLICTTSVPWNASWSNKSVDDIWGNMTWMQWEREIDNYTGIIYNLLEKSQNQQEKNEQELLELDKWASLWNWFDISNWLWYIKIFIMVVGGLIGLRIVFAVLSVVNRVRQGYSPLSFQTRFPAPRGPDRPEGIEEGGGERDRGRSDRLVTGLLELIWDDLRSLCIFSYHRLSDLLLIAARIVELLGRRGWEVLKYWWNLLQYWSQELKNSAVSLLNATAIAVAEGTDRIIEAVLRIYRAIIHIPTRIRQGLERALL
neutralization IC50 (antibody 10-1074 [1]): 0.037 µg/mL | neutralization IC50 (antibody 3BNC117 [2]): 0.004 µg/mL | neutralization IC80 (antibody 10-1074 [3]): 0.781 µg/mL | neutralization IC80 (antibody 3BNC117 [4]): 0.014 µg/mL

B3: HIV-1 Env, rebound clone, placebo arm (protein)
chain: MRVKGIKRNCQRLWKWGTMLLGMLMICSAADNLWVTVYYGVPVWKDATTTLFCASDAKGYETEVHNVWATHACVPTDPSPNEVVLENVTENFNMWKNDMVEQMHEDIISLWDQSLKPCVKLTPLCVTLKCTNATSCTSANATKNVRCDATDSSGNTTTNGTQGVTQGVRTETDEIKNCTFNITTSTRENVEGRALFSDLDLVYDSSAQSYRLIRCNTSVITQACPKVSFEPIPIHYCAPAGFAILKCRDKGFNGTGPCKNVSTVQCTHGIRPVVSTHLLLNGSLAEGKVVIRSENFTDNAKTIIVQLAEAVNITCSRPNNNTRKRMSLGPGKVWYSTGDIIGDIRKAHCNLSGSAWNKTLHQVVAKLREQFENKTIIFKPPPGGDPEILMHNFICGGEFFYCNSTPLFNTTWHNSTWNSTMGNTEGSNDTNITLHCRIKQIINMWQGVGRAMYAPPIKGQIRCSSNITGILLTRDGGNNITTSTNETFRPGGGNMKDNWRSELYKYKVIKIEPLGVAPTKARRRVVQREKRAVGVIGAMFLGFLGAAGSTMGAASLTLTVQARQLLSGIVQQQNNLLKAIEAQQQLLRLTVWGIKQLQARVLAVERYLRDQQLLGIWGCSGKLICTTSVPWNASWSNKSVDDIWGNMTWMQWEREIDNYTGIIYNLLEKSQNQQEKNEQELLELDKWASLWNWFDISNWLWYIKIFIMVVGGLIGLRIVFAVLSVVNRVRQGYSPLSFQTRFPAPRGPDRPEGIEEGGGERDRGRSDRLVTGLLELIWDDLRSLCIFSYHRLSDLLLIAARIVELLGRRGWEALKYWWNLLQYWSQELKNSAVSLLNATAIAVAEGTDRIIEAVLRIYRAIIHIPTRIRQGLERALL
neutralization IC50 (antibody 10-1074 [1]): 0.031 µg/mL and 0.026 µg/mL | neutralization IC50 (antibody 3BNC117 [2]): 0.005 µg/mL and 0.006 µg/mL | neutralization IC80 (antibody 10-1074 [3]): 0.236 µg/mL and 0.141 µg/mL | neutralization IC80 (antibody 3BNC117 [4]): 0.016 µg/mL and 0.019 µg/mL

B4: HIV-1 Env, rebound clone, placebo arm (protein)
chain: MKVMEIKKNWQNWWRGGILLLGILMIYSAAGKEDLWVTVYYGVPVWKETTTTLFCASDAKAYETEKHNVWATHACVPTDPNPQEIDLDNVTENFNMWKNNMVEQMHEDIISLWDQSLKPCVKLTPLCVTLSCTDVVINNTNTNTTGPRVENGELKNCSFNITTDIRDRIKKEYATFDKLDVVPINDNITNSTNNATNYILISCNTSTITQACPKVSFEPIPIHYCAPAGYAILKCKDKNFNGTGPCRNVSTVQCTHGIKPVVSTQLLLNGSLAEDEIVIRSENFTNNAKTIIVQLKDPVEINCTRPNNNTRKGIRVGPGRAIYATGQIIGDIRKAYCNISIPKWDDTLKQIVKKLQEQFKNKTIKINQSAGGDPEIVRHTFNCGGEFFYCDTSKLFNSSWDATGNRTENSTRGNDTFILPCRIKQIVNMWQQVGKAMYAPPVSGLIKCSSNITGLLLTRDGGNSNNTEEIFRPEGGDMRDNWRSELYKYKVVRLEPLGVAPTKAKRRVVQREKRAVGLGVMFLGFLGAAGSTMGAASITLTVQARQLLSGIVQQQNNLLRAIEAQQHMLQLTVWGIKQLQARVLAVERYLKDQQLMGIWGCSGKLICTTAVPWNASWSNRSYNYIWDNMTWMEWEREIDNYTGLIYNLIEESQNQQEKNEKDLLELDKWASLWNWFSITNWLWYIKIFIMIIGGLIGLRIVFTVLSIVNRVRQGYSPLPFQTRFPAPRGPDRPGGTEEEGGEKDRDTSGRLVDGFLALIWVDLRNLCLFSYRHLRDLLLIVARVVELLGRRGWEALKYWWNLLQYWSQELKNSAISLLNATAIAVAEGTDRIIKALQRAGRAILHIPTRIRQGLERALL
neutralization IC50 (antibody 10-1074 [1]): 0.003 µg/mL | neutralization IC50 (antibody 3BNC117 [2]): 0.005 µg/mL | neutralization IC80 (antibody 10-1074 [3]): 0.019 µg/mL | neutralization IC80 (antibody 3BNC117 [4]): 0.018 µg/mL

B5: HIV-1 Env, rebound clone, placebo arm (protein)
chain: MKVMEIKKNWQNWWRGGILLLGILMIYSAAGKEDLWVTVYYGVPVWKETTTTLFCASDAKAYETEKHNVWATHACVPTDPNPQEIDLDNVTENFNMWKNNMVEQMHEDIISLWDQSLKPCVKLTPLCVTLSCTDVVINNTNTNTTGPRMENGELKNCSFNITTDIRDRIKKEYATFDKLDVVPINDNITNSTNNATNYILISCNTSTITQACPKVSFEPIPIHYCAPAGYAILKCKDKNFNGTGPCRNVSTVQCTHGIKPVVSTQLLLNGSLAEDEIVIRSENFTNNAKTIIVQLKDPVEINCTRPNNNTRKGISVGPGRAIYATGQIIGDIRKAYCNISIPKWDDTLKQIVKKLQEQFKNKTIKINQSAGGDPEIVRHTFNCGGEFFYCDTSKLFNSSWDATGNRTENSTRGSDTFILPCRIKQIVNMWQQVGKAMYAPPVSGLIKCSSNITGLLLTRDGGNSNNTEEIFRPEGGDMRDNWRSELYKYKVVRLEPLGVAPTKAKRRVVQREKRAVGLGVMFLGFLGAAGSTMGAASITLTVQARQLLSGIVQQQNNLLRAIEAQQHMLQLTVWGIKQLQARVLAVERYLKDQQLMGIWGCSGKLICTTAVPWNASWSNRSYNYIWDNMTWMEWEREIDNYTGLIYNLIEESQNQQEKNEKDLLELDKWASLWNWFSITNWLWYIKIFIMIIGGLIGLRIVFTVLSIVNRVRQGYSPLPFQTRFPAPRGPDRPGGTEEEGGEKDRDTSGRLVDGFLALIWVDLRNLCLFSYRHLRDLLLIVARVVELLGRRGWEALKYWWNLLQYWSQELKNSAISLLNATAIAVAEGTDRIIKALQRAGRAILHIPTRIRQGLERALL
neutralization IC50 (antibody 10-1074 [1]): 0.008 µg/mL | neutralization IC50 (antibody 3BNC117 [2]): 0.007 µg/mL | neutralization IC80 (antibody 10-1074 [3]): 0.026 µg/mL | neutralization IC80 (antibody 3BNC117 [4]): 0.035 µg/mL

B6: HIV-1 Env, rebound clone, placebo arm (protein)
chain: MKVMEIKKNWQNWWRGGILLLGILMIYSAAGKEDLWVTVYYGVPVWKETTTTLFCASDAKAYETEKHNVWATHACVPTDPNPQEIDLDNVTENFNMWKNNMVEQMHEDIISLWDQSLKPCVKLTPLCVTLSCTDVVINNTNTNTTGPRVENGELKNCSFNITTDIRDRIKKEYATFDKLDVVPINDNITNSTNNATNYILISCNTSTITQACPKVSFEPIPIHYCAPAGYAILKCKDKNFNGTGPCRNVSTVQCTHGIKPVVSTQLLLNGSLAEDEIVIRSENFTNNAKTIIVQLKDPVEINCTRPNNNTRKGIRVGPGRAIYATGQIIGDIRKAYCNISIPKWDDTLKQIVKKLQEQFKNKTIKINQSAGGDPEIVRHTFNCGGEFFYCDTSKLFNSSWDATGNRTENSTRGRSDTFILPCRIKQIVNMWQQVGKAMYAPPVSGLIKCSSNITGLLLTRDGGNSNNTEEIFRPEGGDMRDNWRSELYKYKVVRLEPLGVAPTKAKRRVVQREKRAVGLGVMFLGFLGAAGSTMGAASITLTVQARQLLSGIVQQQNNLLRAIEAQQHMLQLTVWGIKQLQARVLAVERYLKDQQLMGIWGCSGKLICTTAVPWNASWSNRSYNYIWDNMTWMEWEREIDNYTGLIYNLIEESQNQQEKNEKDLLELDKWASLWNWFSITNWLWYIKIFIMIIGGLIGLRIVFTVLSIVNRVRQGYSPLPFQTRFPAPRGPDRPGGTEEEGGEKDRDTSGRLVDGFLALIWVDLRNLCLFSYRHLRDLLLIVARVVELLGRRGWEALKYWWNLLQYWSQELKNSAISLLNATAIAVAEGTDRIIKALQRAGRAILHIPTRIRQGLERALL
neutralization IC50 (antibody 10-1074 [1]): 0.003 µg/mL | neutralization IC50 (antibody 3BNC117 [2]): 0.004 µg/mL | neutralization IC80 (antibody 10-1074 [3]): 0.012 µg/mL | neutralization IC80 (antibody 3BNC117 [4]): 0.016 µg/mL
